Pooled drug test results. Numbers come from NIAID ChemDB, via PubChem.

CCn: concentration that lowers growth or viability of the cells by n%.

SMILES,tested at,agent,test,method,strain,cells,read-out,protein,value
COc1ccc(-c2cncc(N3CCN(c4ccccn4)CC3)n2)cc1OC,1 µM,Cytomegalovirus,target,,,,inhibition,UL97 kinase,<50%
O=C(NCCc1ccc2c(n1)NCCC2)NCc1cncnc1,,,toxicity,,,PBMC,CC50,,50 µM
CC(C)(C)OC(=O)NCC(OC(=O)C(O)CO)c1ccc2c(c1)OCO2,,,toxicity,,,RAJI,CC50,,<7.5 µM
Fc1ccc(N2CCCCC2)c(NC(=S)c2ccncc2)c1,10 µM,,host protein,kinase activity,,,inhibition,EphA4,2%
O=C1C(c2[nH]c3ccc(S(=O)(=O)O)cc3c2O)=Nc2ccc(S(=O)(=O)O)cc21,5 µg/mL,Adenovirus,culture,cytopathic effect,TYPE 3,Human embryonic lung cells,inhibition,,0%
Cc1ccccc1CC1CCc2nc(N)nc(N)c2C1,,Cryptosporidium parvum,target,,TYPE 1,,IC50,Dihydrofolate reductase,0.15 µM
C=CCCC(=O)NC[C@H](O)c1ccc2c(c1)OCO2,,,toxicity,,,RAJI,CC50,,<7.5 µM
COc1ccc(OC)c(CCc2cc3c(N)nc(N)nc3s2)c1,,Cryptosporidium parvum,target,,TYPE 1,,IC50,Dihydrofolate reductase,>10 µM
CC(C)=CCN1Cc2cccc3[nH]c(=S)n(c23)C[C@@H]1C,,Human,host protein,,,,IC50,DNA polymerase gamma,>175 µM
CCc1ccccc1-c1nc2nc(N)nc(N)c2nc1-c1ccccc1CC,,Cryptosporidium parvum,target,,TYPE 2,,IC50,Dihydrofolate reductase,>10 µM
Cc1cn(-c2cccc(CCNC(=O)Nc3cccc(F)c3)n2)cn1,,,toxicity,,,PBMC,CC50,,50 µM
Nc1nc(N)c2nc(Cc3ccc(Cl)c(Cl)c3)c(Cc3ccc(Cl)c(Cl)c3)nc2n1,,Cryptosporidium parvum,target,,TYPE 1,,IC50,Dihydrofolate reductase,0.25 µM
O=C(NCCc1cccc(-n2ccnc2)n1)Nc1cccc(F)c1,,,toxicity,,,PBMC,CC50,,50 µM
CCC(CC)[C@H](NC(C)=O)[C@@H]1[C@H](O)[C@@H](C(=O)O)C[C@H]1N=C(N)N,,Influenza A virus,culture,,H1N1 A/Beijing/262/95,MDCK,EC50,,0.36 µM
Cc1ccc(C(=O)Nc2ccc(S(=O)(=O)O)c3cc(S(=O)(=O)O)cc(S(=O)(=O)O)c23)cc1NC(=O)c1cccc(NC(=O)Nc2cccc(C(=O)Nc3cc(C(=O)Nc4ccc(S(=O)(=O)O)c5cc(S(=O)(=O)O)cc(S(=O)(=O)O)c45)ccc3C)c2)c1,50 µg/mL,Adenovirus,culture,cytopathic effect,TYPE 3,Human embryonic lung cells,inhibition,,0%
O=C(c1ccco1)N1CCN(c2cncc(-c3cccc(CO)c3)n2)CC1,,Cytomegalovirus,target,,,,IC50,UL97 kinase,<100 µM
O=C(NCCc1cccc(-n2cccn2)n1)Nc1cccc(F)c1,,,toxicity,,,PBMC,CC50,,30 µM
FC(F)(F)c1cc(COc2ccc(-c3cnc4c(-c5nn[nH]n5)cnn4c3C3CCCCC3)cc2)ccc1Cl,,Hepatitis C virus,target,,,,IC50,RNA-dependent RNA polymerase,1–10 µM
Nc1nc(N)c2c(n1)CCC(Cc1cccc(OC(F)(F)F)c1)C2,,Cryptosporidium parvum,target,,TYPE 2,,IC50,Dihydrofolate reductase,0.4 µM
Cc1noc(C)c1-c1cnc2c(C(=O)O)cnn2c1C1CCCCC1,,Hepatitis C virus,target,,,,IC50,RNA-dependent RNA polymerase,>10 µM
c1cncc(-c2cncc(N3CCN(c4cccc5[nH]ccc45)CC3)n2)c1,1 µM,Cytomegalovirus,target,,,,inhibition,UL97 kinase,<50%
CC(C)n1nccc1NC(=O)NCCc1ccc2c(n1)NCCC2,,,toxicity,,,PBMC,CC50,,0.83 µM
COc1ccc(C(O)C(Br)N=[N+]=[N-])cc1OC,,,toxicity,,,HEK 293,CC50,,<13.5 µM
O=C(O)c1cnn2c(-c3ccc(F)cc3)cc(-c3ccc(F)cc3)nc12,,Hepatitis C virus,target,,,,IC50,RNA-dependent RNA polymerase,>10 µM
O=C(NCCc1ccc2c(n1)NCCC2)NC1C2CC3CC(C2)CC1C3,,,toxicity,,,PBMC,CC50,,20 µM
O=C(O)c1cc2nc(-c3ccc(Cl)cc3)cc(-c3ccc(-c4ccccc4)cc3)n2n1,,Hepatitis C virus,target,,,,IC50,RNA-dependent RNA polymerase,1–10 µM
Cc1nnc(-c2cccc(-c3ccc(C(=O)N(Cc4cccc(OCCCCCC(=O)OC(=O)O)c4)C(C)C)cc3)c2)o1,,,toxicity,,,HEK 293,CC50,,>20 µM
Cc1cc(-c2ccc(N=Nc3ccc4c(S(=O)(=O)O)cc(S(=O)(=O)O)c(N)c4c3O)c(C)c2)ccc1N=Nc1ccc2c(S(=O)(=O)O)cc(S(=O)(=O)O)c(N)c2c1O,50 µg/mL,Adenovirus,culture,cytopathic effect,TYPE 3,Human embryonic lung cells,inhibition,,0%
CCOc1cccc2nc(N)nc(N)c12,,Cryptosporidium parvum,target,,TYPE 2,,IC50,Dihydrofolate reductase,0.35 µM
CCOC(=O)CCCCCOc1cccc(CNC(C)C)c1,,,toxicity,,,BJ,CC50,,>20 µM
Cc1cc(CCCOc2c(C)cc(-c3noc(C(F)(F)F)n3)cc2C)on1,,Rhinovirus,culture,cytopathic effect / visual reading,Isolate 25,OHIO HELA-I,EC50,,0.22 µg/mL
Nc1c(S(=O)(=O)O)cc2cc(S(=O)(=O)O)cc(O)c2c1O,5 µg/mL,Adenovirus,culture,cytopathic effect,TYPE 3,Human amnion AV3 cells,inhibition,,0%
Cc1nn2c(C3CCCCC3)c(-c3ccoc3)cnc2c1C(=O)N[C@@H](Cc1ccc(O)cc1)C(=O)O,,Hepatitis C virus,target,,,,IC50,RNA-dependent RNA polymerase,<1 µM
CCOC(=O)CCCCCOc1cccc(CN(C(=O)c2ccccc2)C(C)C)c1,,,toxicity,,,RAJI,CC50,,>20 µM
CC(Oc1ccc(-c2cnc3c(-c4nn[nH]n4)cnn3c2C2CCCCC2)cc1)c1cccc(C(F)(F)F)c1,,Hepatitis C virus,target,,,,IC50,RNA-dependent RNA polymerase,1–10 µM
O=S(=O)([O-])c1cc(O)c2ccccc2c1,5 µg/mL,Rhinovirus,culture,cytopathic effect,,Human amnion AV3 cells,inhibition,,0%
C[C@H](NC(=O)c1cnn2c(C3CCCCC3)c(-c3ccc(F)cc3)cnc12)C(=O)O,,Hepatitis C virus,target,,,,IC50,RNA-dependent RNA polymerase,<1 µM
CSc1cccc(NC(=O)NCCc2ccc3c(n2)NCCC3)c1,,,toxicity,,,PBMC,CC50,,2.4 µM
COc1ccc(-c2cncc(N3CCN(c4cccc(C(F)(F)F)c4)CC3)n2)cc1OC,10 µM,Cytomegalovirus,target,,,,inhibition,UL97 kinase,>15%
CC(C)N(Cc1cccc(OCCCCCC(=O)OC(=O)O)c1)C(=O)c1ccccc1,,,toxicity,,,RAJI,CC50,,>20 µM
O=S(=O)([O-])c1ccc2c(O)cc(S(=O)(=O)[O-])cc2c1,5 µg/mL,Adenovirus,culture,cytopathic effect,TYPE 3,Human amnion AV3 cells,inhibition,,0%
CC(C)c1ccc(S(=O)(=O)NCCc2ccc3c(n2)NCCC3)cc1F,,,toxicity,,,PBMC,CC50,,50 µM
O=C(O)c1cc(S(=O)(=O)[O-])ccc1O,10 µg/mL,Adenovirus,culture,cytopathic effect,TYPE 3,Human embryonic lung cells,inhibition,,5%
O=C(NS(=O)(=O)Cc1ccccc1)c1cnn2c(C3CCCCC3)c(-c3ccc(F)cc3)cnc12,,Hepatitis C virus,target,,,,IC50,RNA-dependent RNA polymerase,<1 µM
CCOC(=O)COc1ccccc1CN(C(=O)c1ccc(-c2ccc3c(c2)OCO3)cc1)C(C)C,,,toxicity,,,BJ,CC50,,>20 µM
CC(C)(C)c1ccc(-c2cncc(N3CCN(c4ccccc4)CC3)n2)cc1,10 µM,Cytomegalovirus,target,,,,inhibition,UL97 kinase,>15%
COc1cc(-c2sc3nc(N)nc(N)c3c2C)cc(OC)c1OC,,Cryptosporidium parvum,target,,TYPE 1,,IC50,Dihydrofolate reductase,>10 µM
CCOc1ccc(-c2cncc(N3CCN(c4ccccc4F)CC3)n2)cc1,10 µM,Cytomegalovirus,target,,,,inhibition,UL97 kinase,>15%
O=C(NCCc1ccc2c(n1)NCCC2)Nc1cccs1,,,toxicity,,,PBMC,CC50,,50 µM

Repeating the first 7 entries:

SMILES	tested at	agent	test	method	strain	cells	read-out	protein	value
COc1ccc(-c2cncc(N3CCN(c4ccccn4)CC3)n2)cc1OC	1 µM	Cytomegalovirus	target				inhibition	UL97 kinase	<50%
O=C(NCCc1ccc2c(n1)NCCC2)NCc1cncnc1			toxicity			PBMC	CC50		50 µM
CC(C)(C)OC(=O)NCC(OC(=O)C(O)CO)c1ccc2c(c1)OCO2			toxicity			RAJI	CC50		<7.5 µM
Fc1ccc(N2CCCCC2)c(NC(=S)c2ccncc2)c1	10 µM		host protein	kinase activity			inhibition	EphA4	2%
O=C1C(c2[nH]c3ccc(S(=O)(=O)O)cc3c2O)=Nc2ccc(S(=O)(=O)O)cc21	5 µg/mL	Adenovirus	culture	cytopathic effect	TYPE 3	Human embryonic lung cells	inhibition		0%
Cc1ccccc1CC1CCc2nc(N)nc(N)c2C1		Cryptosporidium parvum	target		TYPE 1		IC50	Dihydrofolate reductase	0.15 µM
C=CCCC(=O)NC[C@H](O)c1ccc2c(c1)OCO2			toxicity			RAJI	CC50		<7.5 µM

Lines come from different laboratories, so protocols vary. Blank or dashed fields: not listed here. ICn: concentration for n% inhibition. ECn: concentration that inhibits the pathogen or its effect by n%. a–b is a range or a potency band. Inhibition is in % at the dose shown (toxicity tests: loss of growth or viability).